Pooled drug test results. Numbers come from NIAID ChemDB, via PubChem.

All rows: growth or infection tests; species: Mycobacterium tuberculosis

MIC50, MIC90 and the like: level of inhibition, or share of isolates inhibited. MIC bound: limit read from a one-dose screen. ECn is the concentration giving n% inhibition of infection, replication or growth. Blank or dashed fields: not listed here. Inhibition is in % at the dose shown (toxicity tests: loss of growth or viability). Rows are shuffled and stem from different studies.

compound | strain | tested at | endpoint | method | cells | value
CCCCNC(=O)c1ncccc1C(=O)O | H37Rv | 6.25 µg/mL | inhibition | resazurin |  | -8%
CC(C)c1ccc2c(c1)CC[C@H]1[C@](C)(CNCCNCCC(c3ccccc3)c3ccccc3)CCC[C@]21C |  |  | MIC |  |  | 12.5 µM
CCCCC(CC)CN1CN(CC(CC)CCCC)CC(C)(NCCNCc2cccc(F)c2)C1 |  |  | MIC |  |  | 50 µM
Cc1ccc(C(=O)NNC(=O)c2ccccc2C)cc1 | H37Rv |  | MIC |  |  | >100 µg/mL
CC(C)(C)CC(C)(C)NCCNCC12CC3CC(CC(C3)C1)C2 |  |  | MIC |  |  | 4.7 µM
CC(C)N=c1cc2n(-c3ccc(Cl)cc3)c3ccccc3nc-2cc1Nc1ccc(Cl)cc1 | MDR5 |  | MIC | broth dilution / resazurin |  | 0.25 µg/mL
Cl.NCCOc1ccccc1 | H37Rv |  | MIC |  |  | 400 µg/mL
O=C1c2ccccc2OC(c2cccc(Cl)c2)C1O | H37Rv |  | EC50 |  |  | <12.5 µg/mL
Cc1cn([C@H]2C=C[C@@H](CO)O2)c(=O)[nH]c1=O | H37Rv | 12.5 µg/mL | inhibition | BACTEC |  | 1%
COc1ccc(C2CC(=O)c3ccc(F)cc3O2)cc1 |  | 12.5 µg/mL | inhibition |  |  | 0%
COC1=CC(=O)c2c(ccc3ncnc(N)c23)C1=O | H37Rv | 12.5 µg/mL | inhibition | BACTEC |  | 87%
CCCCCCCCCCCNCCN[C@H](CO)CC(C)C |  |  | MIC |  |  | 50 µM
CCC/C=C(/C=O)CC | H37Rv |  | MIC |  |  | 100 µg/mL
CCOC(=O)Nc1cc2c(c(N)n1)N=C(c1cc(OC)cc(OC)c1)C(C)O2 | H37Rv |  | EC50 |  |  | <12.5 µg/mL
NCC(=O)N/N=C/c1ccc([N+](=O)[O-])o1 | TAC-R |  | MIC |  |  | 6.3 µg/mL
CCN(CC)Cc1cc(Oc2ccc(O)c(CN(CC)CC)c2)ccc1O | H37Rv |  | MIC |  |  | >100 µg/mL
O=C1N(Cl)C2(c3ccccc3)N(Cl)C(=O)N(Cl)C2(c2ccccc2)N1Cl | H37Rv | 6.25 µg/mL | inhibition | resazurin |  | -21%
CC(NCCNCc1ccc(C(F)(F)F)cc1)c1c[nH]c2ccccc12 |  |  | MIC |  |  | 25 µM
CCN1Cc2c(/C=C/c3ccccc3)nc3ccc(OC)cc3c2N(c2cccc(Cl)c2)C1 | H37Rv | 12.5 µg/mL | inhibition | BACTEC |  | 89%
COc1ccc(C2=NOC(=O)C2)cc1 | H37Rv |  | MIC |  |  | 50 µg/mL
CN(C)c1ccc(/C=C/C(=O)c2ccncc2)cc1 | H37Rv |  | EC50 |  |  | >12.5 µg/mL
CN(CCN(C)C(=O)CCn1cc(F)c(=O)[nH]c1=O)C(=O)CCn1cc(F)c(=O)[nH]c1=O | H37Rv |  | MIC bound | resazurin |  | >6.25 µg/mL
CCCCCCCCCCCNCCNCCC |  |  | MIC |  |  | 25 µM
Cc1cccc(CNCCNCCc2ccc(Cl)cc2Cl)c1 |  |  | MIC |  |  | 12.5 µM
O=C(O)c1cc(I)cc(I)c1I | H37Rv |  | MIC |  |  | >100 µg/mL
COc1ccc(CNCCNC[C@@H]2CC[C@H]3C[C@@H]2C3(C)C)c(OC)c1 |  |  | MIC |  |  | 50 µM
NC[C@H]1O[C@H](O[C@H]2[C@H](O)[C@@H](O[C@H]3O[C@H](CO)[C@@H](O)[C@H](N)[C@H]3O)[C@H](N)C[C@@H]2N)[C@H](O)[C@@H](O)[C@@H]1O | TN3218 (W3) |  | MIC |  |  | >256 µg/mL
Cc1cnc(C(=O)O)c(N)n1 | H37Rv |  | MIC bound | BACTEC |  | >12.5 µg/mL
CCOC(=O)Nc1cc2c(c(N)n1)N=C(c1ccccc1)[C@@H](CC)N2 | H37Rv | 12.5 µg/mL | inhibition |  |  | 0%
Cc1cc2c(c(C=Nc3ccc([N+](=O)[O-])cc3)c1)OC1(C=C2)Oc2ccccc2C(=O)N1C | H37Rv |  | MIC bound | resazurin |  | >6.25 µg/mL
CC[C@H]1OC(=O)[C@H](C)[C@@H](O[C@H]2C[C@@](C)(OC)[C@@H](O)[C@H](C)O2)[C@H](C)[C@@H](O[C@@H]2O[C@H](C)C[C@H](N(C)C)[C@H]2O)[C@](C)(O)C[C@@H](C)C(=O)[C@H](C)[C@@H](O)[C@]1(C)O | ATCC 35820 |  | MBC |  |  | >8 µg/mL
CC1=C(O)c2ccccc2C(=O)C1=O | H37Rv |  | MIC |  |  | >100 µg/mL
CC1CN(c2cc3c(cc2F)c(=O)c(C(=O)O)cn3-c2ccc(F)cc2F)CCN1 | DRUG-SUS |  | MIC50 |  |  | 1 µg/mL
NC(=O)N/N=C1\CCC(O)CC1CC(=O)O | H37Rv |  | MIC bound | BACTEC |  | >12.5 µg/mL
CCCCC(C)C(C)N(C)c1cc(NC(=O)OCC)nc(N)c1N | H37Rv | 12.5 µg/mL | inhibition |  |  | 3%
O=C1CSC(c2ccccc2Br)N1c1nncs1 | H37Rv |  | MIC bound | BACTEC |  | >12.5 µg/mL
O=C(O)CCCCCC(=O)O | H37Rv |  | MIC |  |  | >100 µg/mL
C[C@@H]1CN(C(=S)Nc2ccccc2)[C@@H](C)CN1C=O | H37Rv |  | MIC | BACTEC |  | ≥12.5 µg/mL
Cc1ccc2c(c1)N(CC(O)CO)CCC2 | H37Rv |  | MIC |  |  | 100 µg/mL
CO[C@H]1/C=C/O[C@@]2(C)Oc3c(C)c(O)c4c(O)c(c(/C=N/N5CCN(C/C=C/c6ccccc6)CC5)c(O)c4c3C2=O)NC(=O)/C(C)=C\C=C\[C@H](C)[C@H](O)[C@@H](C)[C@@H](O)[C@@H](C)[C@H](OC(C)=O)[C@@H]1C | 2275 (rifampin-resistant) |  | MBC |  |  | 0.8 µg/mL
NC1CCN(c2nc3c(cc2F)c(=O)c(C(=O)O)cn3-c2ccc(F)cc2F)C1 | DRUG-SUS |  | MIC90 |  |  | >8 µg/mL
CCOC(=O)Nc1cc(NC(C)C(O)COc2ccccc2)c(N)c(N)n1 | H37Rv |  | EC50 |  | VERO | <12.5 µg/mL
CN(C)CNC(=S)S | INH-r |  | MIC |  |  | 3.1 µg/mL
C[C@H]1COc2c(N3CCN(C)CC3)c(F)cc3c(=O)c(C(=O)O)cn1c23 | Drug-resistant |  | MIC50 |  |  | 0.25 µg/mL
CCOC(=O)c1c(O)c(C)c[nH]c1=O | H37Rv |  | MIC |  |  | >100 µg/mL
CCOC(=O)Nc1cc(N)c(N)c(N)c1 | H37Rv | 12.5 µg/mL | inhibition |  |  | 10%
CCC(CC)NCCNC[C@]1(C)CCC[C@]2(C)c3ccc(C(C)C)cc3CC[C@@H]12 |  |  | MIC |  |  | 25 µM
CCOC(=O)C(=O)Nc1cccc(Cl)c1 | H37Rv |  | MIC |  |  | 100 µg/mL
COc1ccc2n[se]nc2c1 | H37Rv | 12.5 µg/mL | inhibition | BACTEC |  | 28%
CO[C@H]1/C=C/O[C@@]2(C)Oc3c(C)c(O)c4c(=O)c(c5oc6cc(N7CCN(CC(C)C)CC7)cc(=O)c6nc5c4c3=C2O)NC(=O)/C(C)=C\C=C\[C@H](C)[C@H](O)[C@@H](C)[C@@H](O)[C@@H](C)[C@H](OC(C)=O)[C@@H]1C | 3147 (rifampin-sensitive) |  | MBC |  |  | 0.003 µg/mL
COc1ccc(NC(=O)CCC(=O)Nc2ccc(OC)cc2)cc1 | H37Rv |  | MIC |  |  | >100 µg/mL
Fc1ccc(CCNCCNCCC2=CCCCC2)cc1 |  |  | MIC |  |  | 12.5 µM
O=c1c2ccccc2oc2cc([N+](=O)[O-])cc([N+](=O)[O-])c12 | H37Rv | 12.5 µg/mL | inhibition | BACTEC |  | 99.9%
Cc1cc(C)c(C(=O)O)c(C)c1Br | H37Rv |  | MIC |  |  | >100 µg/mL
C[C@@H]1CN(c2c(F)c(N)c3c(=O)c(C(=O)O)cn(C4CC4)c3c2F)C[C@H](C)N1 | ATCC 35823 |  | MIC |  |  | 0.03 µg/mL
O=[As]c1ccc(Nc2nccs2)cc1 | H37Rv |  | MIC |  |  | >100 µg/mL
CC(/C(=N/NC(=O)C(N)=O)c1c(Cl)ccc(Cl)c1O)C1(O)C(=O)Nc2ccccc21 | H37Rv |  | MIC bound | BACTEC |  | >12.5 µg/mL
COc1ccc2c(c1)OC(c1cccc([N+](=O)[O-])c1)CC2=O |  | 12.5 µg/mL | inhibition |  |  | 0%
CCCCCCCCCCCNCCNCCc1ccccc1OC |  |  | MIC |  |  | 25 µM
N=C(N)SC(c1ccccc1)c1ccccc1 | H37Rv |  | MIC |  |  | >100 µg/mL
CC(C)(C)CC(C)(C)NCCNc1cccc2ncccc12 |  |  | MIC |  |  | 3.13 µM
COc1ccc(Cc2c(-c3ccc(C)cc3)n[nH]c(=O)c2C2C(=O)N(c3ccccc3)N=C2c2ccccc2)cc1 | H37Rv |  | MIC bound | resazurin |  | >6.25 µg/mL
Cl.NCc1ccc(Cl)cc1 | H37Rv |  | MIC |  |  | >100 µg/mL
CCCCC(CC)CN1CN(CC(CC)CCCC)CC(C)(NCCNCCc2ccc(O)c(OC)c2)C1 |  |  | MIC |  |  | 12.5 µM
O=[N+]([O-])c1nc2ccccc2[nH]1 | H37Rv |  | MIC bound | resazurin |  | >6.25 µg/mL
COc1ccccc1CCNCCNC(C)C12CC3CC(CC(C3)C1)C2 |  |  | MIC |  |  | 50 µM
COc1cc(/C=N/NC(=O)CC(C)O)ccc1O | H37Rv | 12.5 µg/mL | inhibition | BACTEC |  | 2%
Nc1c(S(=O)(=O)O)ccc2c1C(=O)c1ccccc1C2=O | H37Rv |  | MIC |  |  | >100 µg/mL
N#CCCN(c1ccc(/C=C2\N=C(c3ccc(Cl)cc3)OC2=O)cc1)S(=O)(=O)c1ccccc1 | H37Rv | 12.5 µg/mL | inhibition | BACTEC |  | -19%
CCOc1ccccc1CNCCNC(c1ccccc1)c1ccccc1 |  |  | MIC |  |  | 50 µM
CC(=O)Nc1ccccc1-c1ccccc1NC(C)=O | H37Rv |  | MIC |  |  | >100 µg/mL
CO[C@H]1/C=C/O[C@@]2(C)Oc3c(C)c(O)c4c(=O)c(c5oc6cc(N7CCN(CC(C)C)CC7)cc(=O)c6nc5c4c3=C2O)NC(=O)/C(C)=C\C=C\[C@H](C)[C@H](O)[C@@H](C)[C@@H](O)[C@@H](C)[C@H](OC(C)=O)[C@@H]1C | TN994 |  | MIC |  |  | 4 µg/mL
O=C(O)c1ccc(Cl)cc1Cl | H37Rv |  | MIC |  |  | >100 µg/mL
CCCCCCCCCCCNCCN[C@@H]1C[C@@H]2C[C@H]([C@H]1C)C2(C)C |  |  | MIC |  |  | 25 µM
Nc1ccc2nc(-c3ccccc3)sc2c1 | H37Rv |  | MIC |  |  | 100 µg/mL
c1ccc2c(c1)CC(NCCNC1C3CC4CC(C3)CC1C4)C2 |  |  | MIC |  |  | 25 µM

For reference, 5 entries again:

compound	strain	tested at	endpoint	method	cells	value
NC1CCN(c2nc3c(cc2F)c(=O)c(C(=O)O)cn3-c2ccc(F)cc2F)C1	DRUG-SUS		MIC90			>8 µg/mL
CO[C@H]1/C=C/O[C@@]2(C)Oc3c(C)c(O)c4c(O)c(c(/C=N/N5CCN(C/C=C/c6ccccc6)CC5)c(O)c4c3C2=O)NC(=O)/C(C)=C\C=C\[C@H](C)[C@H](O)[C@@H](C)[C@@H](O)[C@@H](C)[C@H](OC(C)=O)[C@@H]1C	2275 (rifampin-resistant)		MBC			0.8 µg/mL
CN(C)CNC(=S)S	INH-r		MIC			3.1 µg/mL
COC1=CC(=O)c2c(ccc3ncnc(N)c23)C1=O	H37Rv	12.5 µg/mL	inhibition	BACTEC		87%
Nc1ccc2nc(-c3ccccc3)sc2c1	H37Rv		MIC			100 µg/mL